Measured values from several laboratories, pooled; numbers as filed in NIAID ChemDB.

Shared fields: enzyme or target tests; agent: HIV-1; protein: Reverse transcriptase; measure: fold resistance

a–b is a range or a potency band. Conditions beyond the fields shown may differ between rows. Fold resistance has wild type as its base. An empty or dashed field is not shown.

smiles | strain or isolate | mutations | method | result
CCN1c2ncc(CCOc3cccc4c3ccc[n+]4[O-])cc2C(=O)N(C)c2ccc(Cl)nc21 | - | RT-K103N Y181C | nucleotide incorporation / radiometric | 5.1
CCN1c2ncc(CCOc3ccc(C(=O)O)c4c3CCCC4)cc2C(=O)N(C)c2ccc(OC)nc21 | - | RT-Y188L | nucleotide incorporation / radiometric | 1–10
CC(C)=CCOc1cc(NC(=S)c2ccoc2C)ccc1Cl | - | RT-V106A | - | 1
CCN1c2ncc(CCOc3ccc(C(=O)O)c4c3CCN(S(=O)(=O)N(C)C)C4)cc2C(=O)N(C)c2cccnc21 | - | RT-K103N Y181C | nucleotide incorporation / radiometric | 1
O=C(CSc1nnc(Br)n1-c1ccc(C2CC2)c2ccccc12)Nc1ccc(C(=O)O)cc1Cl | - | RT-Y188L | nucleotide incorporation / radiometric | >2
CCN1c2ncc(CCOc3ccc(C(=O)NN)cc3C)cc2C(=O)Nc2c(C)ccnc21 | IIIB | RT-K103N Y181C | nucleotide incorporation / radiometric | >1
Cc1c(Cc2ccccc2)nc(SCCCCO)[nH]c1=O | - | RT-Y181I | - | 8.26
CCN1c2ncc(CCOc3ccc(S(=O)(=O)c4ccc(C(=O)O)cc4)cc3C)cc2C(=O)N(C)c2cccnc21 | IIIB | RT-K103N Y181C | nucleotide incorporation / radiometric | 1
CN(CC(=O)O)C(=O)c1ccc(NC(=O)CSc2nnc(Br)n2-c2ccc(C3CC3)c3ccccc23)c(Cl)c1 | - | RT-Y188L | nucleotide incorporation / radiometric | >2
CCN1c2ncc(CCOc3ccc(/C=C(\C)C(=O)O)c4ccccc34)cc2C(=O)N(C)c2ccc(F)nc21 | - | RT-V106A | nucleotide incorporation / radiometric | >10
CCN1c2ncc(CCOc3ccc(-c4cc(CC(=O)O)ccc4C)cc3C)cc2C(=O)N(C)c2cccnc21 | IIIB | RT-K103N Y181C | nucleotide incorporation / radiometric | >1
CC(C)=CCOc1cc(NC(=S)c2ccsc2C)ccc1Cl | - | RT-L74V | - | 1
CCN1c2ncc(CCOc3ccc(C(=O)O)c4ccccc34)cc2C(=O)Nc2c(C)ccnc21 | - | RT-V106A | nucleotide incorporation / radiometric | 1–10
CCOC(=O)CN(C)C(=O)c1ccc(NC(=O)CSc2nnc(Br)n2-c2ccc(C3CC3)c3ccccc23)c(Cl)c1 | - | RT-Y181C | nucleotide incorporation / radiometric | <1
CCN1c2ncc(CCOc3ccc(-c4cc(Cl)c(C(=O)O)cc4F)cc3C)cc2C(=O)N(C)c2cccnc21 | IIIB | RT-K103N Y181C | nucleotide incorporation / radiometric | 1
CCc1ccc(-n2c(Br)nnc2SCC(=O)Nc2ccc(C(=O)O)cc2C)c2ccccc12 | - | RT-Y188L | nucleotide incorporation / radiometric | >2
CCN1c2ncc(CCOc3ccc(-c4cc(C(=O)O)ccc4F)cc3C)cc2C(=O)N(C)c2cccnc21 | IIIB | RT-K103N Y181C | nucleotide incorporation / radiometric | >1
CCN1c2ncc(CCOc3ccc(C(=O)O)c4c3CCCC4)cc2C(=O)N(C)c2ccc(C)nc21 | - | RT-K103N Y181C | nucleotide incorporation / radiometric | 1–10
CCOCn1c(Sc2ccccc2)c(CC)c(=O)[nH]c1=O | - | RT-Y181I | nucleotide incorporation | 22
CCN1c2ncc(CCOc3ccc(CC(C)C(=O)O)c4ccccc34)cc2C(=O)N(C)c2ccc(F)nc21 | - | RT-Y188L | nucleotide incorporation / radiometric | >10
CCN1c2ncc(CCOc3ccc(-c4ccc(C(=O)O)cc4)c(C)c3)cc2C(=O)N(C)c2cccnc21 | IIIB | RT-K103N Y181C | nucleotide incorporation / radiometric | >2
Cc1c(Cc2ccccc2)nc(NCCCCN)[nH]c1=O | - | RT-V106A | - | >10.3
CCN1c2ncc(CCOc3ccc(-c4cscn4)cc3)cc2C(=O)N(C)c2cccnc21 | IIIB | RT-K103N Y181C | nucleotide incorporation / radiometric | >2
CCN1c2ncc(CCOc3ccc(CC(=O)O)c4ccccc34)cc2C(=O)Nc2c(C)cc(F)nc21 | - | RT-V106A | nucleotide incorporation / radiometric | 1–10
CCN1c2ncc(CCOc3ccc(-c4cc(C(=O)O)c(C)o4)cc3)cc2C(=O)N(C)c2cccnc21 | IIIB | RT-K103N Y181C | nucleotide incorporation / radiometric | >2
O=c1cc(Cc2ccccc2)nc(SCCCCO)[nH]1 | - | RT-V179D | - | 1.39
CCN1c2ncc(CCOc3ccc(/C=C(\C)C(=O)O)c4ccccc34)cc2C(=O)N(C)c2cccnc21 | - | RT-V106A | nucleotide incorporation / radiometric | >10
CCN1c2ncc(CCOc3ccc(-c4ccc(C(=O)O)c[n+]4[O-])cc3C)cc2C(=O)N(C)c2cccnc21 | IIIB | RT-K103N Y181C | nucleotide incorporation / radiometric | 1
CCc1cc(NCc2nc3c(C)ccc(C)c3o2)c(=O)[nH]c1C | - | RT-K103N Y181C Y188C | nucleotide incorporation | >6000
CCN1c2ncc(CCOc3ccc(/C=C(\C)C(=O)O)c4ccccc34)cc2C(=O)N(C)c2ccc(C)nc21 | - | RT-V106A | nucleotide incorporation / radiometric | >10

Repeating the first 4 entries:

smiles	strain or isolate	mutations	method	result
CCN1c2ncc(CCOc3cccc4c3ccc[n+]4[O-])cc2C(=O)N(C)c2ccc(Cl)nc21	-	RT-K103N Y181C	nucleotide incorporation / radiometric	5.1
CCN1c2ncc(CCOc3ccc(C(=O)O)c4c3CCCC4)cc2C(=O)N(C)c2ccc(OC)nc21	-	RT-Y188L	nucleotide incorporation / radiometric	1–10
CC(C)=CCOc1cc(NC(=S)c2ccoc2C)ccc1Cl	-	RT-V106A	-	1
CCN1c2ncc(CCOc3ccc(C(=O)O)c4c3CCN(S(=O)(=O)N(C)C)C4)cc2C(=O)N(C)c2cccnc21	-	RT-K103N Y181C	nucleotide incorporation / radiometric	1